Results deposited as PubChem BioAssay AID1224833 (University of Georgia, 2016).
This is a random part of about 12,000 reagents tested. About 5,600 of them (46%) count as active. 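Active calls cover z-scores past 1 in both directions, so they include lowered as well as raised rotavirus replication.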 No sequences are given here.

Screen: 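Host factors restraining rotavirus as candidate antiviral genes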 (primary screen)
Cells: monkey MA104 kidney cells
Reagents: siRNA pool against human genes, 50 nM
Time to read-out: 48 h knock-down before infection; read 24 h after infection
Conditions: infection with rotavirus strain RV3 two days after transfection; infectious dose for this stage not given
Measurement: 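Rotavirus antigen per well by fluorescent immunoassay, normalised to non-targeting control wells on each plate and given as a standard z-score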
Scale: z-score vs non-targeting control: higher = more rotavirus replication than with non-targeting control
Call rule: In these data the active calls have z-score vs non-targeting control at about -1 or lower, or at about 1 or higher
Meaning of the calls: active = z-score beyond 1 either way; inactive = z-score within 1 of zero

gene	z-score vs non-targeting control	call
KRTAP1-5	-0.297	inactive
LY86	-0.567	inactive
TCN1	-0.415	inactive
CCHCR1	0.0115	inactive
ANO9	-0.306	inactive
TSPAN32	-1.17	active
HIKESHI	-0.59	inactive
IRS4	-1.49	active
CTSK	-1.08	active
NOD2	-0.742	inactive
ANKRD13B	-1.37	active
SETD2	-0.726	inactive
KIAA1191	0.745	inactive
MAPRE2	-1.45	active
RPH3A	-0.8	inactive
MRPS18C	0.369	inactive
TIGIT	-1.42	active
ZFHX2	0.363	inactive
GPR55	-1.71	active
IFT52	1.75	active
CCL18	-1.61	active
ZKSCAN3	-1.7	active
SPOCK1	-1.89	active
SYT5	-1.51	active
DYNLT1	-1.43	active
SEC62	-1.14	active
DARS2	1	active
ZNF630	-0.18	inactive
C2orf68	-2.12	active
CYS1	-0.173	inactive
URB2	0.291	inactive
ADAMTSL5	2.13	active
NUMA1	-0.864	inactive
PLCB1	-1.14	active
DOCK6	-0.889	inactive
ZNF793	-1.16	active
KIF12	-1.41	active
ERMP1	0.462	inactive
WDR49	-1.19	active
SPTBN2	-0.565	inactive
ZMYM1	-0.53	inactive
KRT81	-1.71	active
RGS5	0.251	inactive
SLC60A1	-0.997	inactive
AMY2A	-1.63	active
ATOH8	-0.449	inactive
TSNARE1	1.58	active
CORO1A	-0.904	inactive
RND3	1.41	active
ANKRD9	0.578	inactive
ZNF875	-0.0923	inactive
RB1CC1	0.0356	inactive
FCHSD1	-0.173	inactive
DNMT1	-1.49	active
GUSB	-1.67	active
TWIST2	1.36	active
EPYC	0.479	inactive
CCDC120	1.04	active
FRMD4A	0.919	inactive
NAPG	-2.23	active
ALKAL1	-0.347	inactive
LCE5A	0.0904	inactive
IL17C	-0.857	inactive
S100A2	-0.311	inactive
PTGES	-0.646	inactive
FSCN1	-0.388	inactive
TMEM59	1.97	active
ATP2B1	0.876	inactive
SLC24A5	0.568	inactive
EGFL7	-0.321	inactive
ENTR1	-0.74	inactive
HORMAD1	0.0737	inactive
TBX18	-0.988	inactive
FBN3	-0.815	inactive
IFRD2	0.166	inactive
ZNF705A	1.02	active
SYNPO2	0.565	inactive
ULBP2	-1.4	active
SPRR4	1.75	active
DDX17	1.94	active
TLL1	0.931	inactive
SDC4	-1.27	active
SMC1B	0.502	inactive
SMARCAL1	-1.44	active
DYNLT2	-0.0423	inactive
DPYS	-0.786	inactive
UGGT2	-0.959	inactive
PKD1L1	-0.42	inactive
COL5A3	-0.131	inactive
PNPLA1	-0.508	inactive
SPANXN4	-0.832	inactive
TMEM232	-0.478	inactive
COL2A1	1.07	active
WRAP73	1.95	active
RGMA	-1.35	active
OR5AC2	-0.839	inactive
FAM217A	-0.0456	inactive
ACTA2	-1.53	active
PRG3	-1.74	active
RBBP9	-2.52	active
TMEM139	0.935	inactive
KNDC1	1.68	active
POLB	-0.832	inactive
ARFIP1	0.0932	inactive
HOOK2	-0.691	inactive
CPD	-0.913	inactive
MORN5	0.385	inactive
SLC28A3	1.2	active
GPR31	-1.23	active
S100A10	-2.85	active

In a second layout: 5 of the entries above.
{"gene": "RPH3A", "z-score vs non-targeting control": -0.8, "call": "inactive"}
{"gene": "MRPS18C", "z-score vs non-targeting control": 0.369, "call": "inactive"}
{"gene": "TIGIT", "z-score vs non-targeting control": -1.42, "call": "active"}
{"gene": "ZFHX2", "z-score vs non-targeting control": 0.363, "call": "inactive"}
{"gene": "GPR55", "z-score vs non-targeting control": -1.71, "call": "active"}
